The values that follow come from patent US7098231B2, “Viral polymerase inhibitors” (Boehringer Ingelheim International GmbH, priority 2003, dated 2006).

Chains of the proteins cited; added tags and fusions are not shown. Residues count along the entry.
UniProt P26663, 2420-3010 limits assumed: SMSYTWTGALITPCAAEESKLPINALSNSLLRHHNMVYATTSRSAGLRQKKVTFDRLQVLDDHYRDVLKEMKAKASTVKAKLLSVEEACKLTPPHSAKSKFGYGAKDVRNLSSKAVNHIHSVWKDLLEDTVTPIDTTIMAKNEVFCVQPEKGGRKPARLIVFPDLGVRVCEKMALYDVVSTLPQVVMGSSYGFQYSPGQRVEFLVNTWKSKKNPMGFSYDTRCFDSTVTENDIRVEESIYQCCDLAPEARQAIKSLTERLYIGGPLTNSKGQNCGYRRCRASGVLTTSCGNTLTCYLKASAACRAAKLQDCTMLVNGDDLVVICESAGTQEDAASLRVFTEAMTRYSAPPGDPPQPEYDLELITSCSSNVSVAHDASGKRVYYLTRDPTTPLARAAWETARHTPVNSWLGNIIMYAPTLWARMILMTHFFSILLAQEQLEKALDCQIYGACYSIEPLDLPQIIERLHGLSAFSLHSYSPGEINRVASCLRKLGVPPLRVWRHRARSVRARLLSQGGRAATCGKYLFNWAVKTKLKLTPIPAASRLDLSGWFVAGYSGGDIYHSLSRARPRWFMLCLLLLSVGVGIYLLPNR

In this assay the target is hepatitis C virus RNA dependent polymerase (NS5B) (Hepatitis C virus genotype 1b, UniProt P26663). The following applies: Table 1; HCV NS5B polymerase.

A word on the IC50: it is the midpoint of a concentration-inhibition curve. A high value points to weaker potency in that assay. With `Cn1c(-c2ccoc2)c(C2CCCCC2)c2ccc(C(=O)NS(=O)(=O)c3ccccc3)cc21`, the half-inhibitory concentration (IC50) is below 1000 nM.

Compound `CC(C)S(=O)(=O)NC(=O)c1ccc2c(C3CCCCC3)c(-c3cnccn3)n(C)c2c1` came in with an IC50 below 1000 nM.

Turning to `Cn1c(-c2cccc(N)n2)c(C2CCCC2)c2ccc(C(=O)NS(=O)(=O)c3ccccc3)cc21`, the IC50 was below 1000 nM.

In turn, `CS(=O)(=O)NC(=O)c1ccc2c(c1)nc(-c1ccccn1)n2C1CCCC1` had an IC50 of 1000 to 20000 nM.

As for `COc1ccc(OC)c(S(=O)(=O)NC(=O)c2ccc3c(c2)nc(-c2ccoc2)n3C2CCCCC2)c1`, the IC50 was below 1000 nM.

Compound `O=C(NS(=O)(=O)c1ccccc1)c1ccc2c(c1)nc(-c1ccccn1)n2C1CCCCC1` registered an IC50 of 1000 to 20000 nM.

As to `O=C(NS(=O)(=O)c1ccccc1)c1ccc2c(C3CCCCC3)c(-c3ccoc3)[nH]c2c1`, the IC50 is below 1000 nM.

Compound `Cn1c(-c2ccccn2)c(C2CCCC2)c2ccc(C(=O)NS(=O)(=O)N3CCN(Cc4ccccc4)CC3)cc21` displayed an IC50 of 1000 to 20000 nM.

The compound `COc1ccc(OC)c(S(=O)(=O)NC(=O)c2ccc3c(c2)nc(-c2ccccn2)n3C2CCCCC2)c1` yielded an IC50 of 1000 to 20000 nM.

As to `Cc1c(-c2ccoc2)n(C2CCCC2)c2ccc(C(=O)NS(=O)(=O)c3ccccc3)cc12`, the IC50 is below 1000 nM.

The compound `Cc1c(-c2ccccn2)n(C2CCCC2)c2ccc(C(=O)NS(C)(=O)=O)cc12` gave an IC50 of 1000 to 20000 nM.

For `CCCS(=O)(=O)NC(=O)c1ccc2c(C3CCCC3)c(-c3cnccn3)oc2c1`, the IC50 lay within 1000 to 20000 nM.

In the case of `COc1ccc(OC)c(S(=O)(=O)NC(=O)c2ccc3c(c2)nc(-c2ccoc2)n3C2CCCC2)c1`, the IC50 was below 1000 nM.

Take `COc1ccc(OC)c(S(=O)(=O)NC(=O)c2ccc3c(c2)nc(-c2ccccn2)n3C2CCCC2)c1`: the IC50 was below 1000 nM.

Compound `O=C(NS(=O)(=O)c1ccccc1)c1ccc2c(c1)nc(-c1ccccn1)n2C1CCCC1` had an IC50 of 1000 to 20000 nM.

For `CS(=O)(=O)NC(=O)c1ccc2c(C3CCCC3)c(-c3ccoc3)sc2c1`, the IC50 is below 1000 nM.

In turn, `Cn1c(-c2ccccn2)c(C2CCCC2)c2ccc(C(=O)NS(C)(=O)=O)cc21` returned an IC50 below 1000 nM.

Regarding `CS(=O)(=O)NC(=O)c1ccc2c(c1)nc(-c1ccoc1)n2C1CCCCC1`, the IC50 is below 1000 nM.

Turning to `CS(=O)(=O)NC(=O)c1ccc2c(C3CCCC3)c(-c3ccoc3)[nH]c2c1`, the IC50 was below 1000 nM.

Turning to `O=C(NS(=O)(=O)C1CC1)c1ccc2c(C3CCCC3)c(-c3ccccn3)sc2c1`, the half-maximal inhibitory concentration (IC50) fell in the range of 1000 to 20000 nM.

Compound `Cn1c(-c2ccoc2)c(C2CCCC2)c2ccc(C(=O)NS(=O)(=O)C3CC3)cc21` came in with an IC50 below 1000 nM.

In turn, `Cn1c(-c2cnccn2)c(C2CCCC2)c2ccc(C(=O)NS(=O)(=O)c3ccccc3)cc21` registered an IC50 below 1000 nM.

In turn, `CS(=O)(=O)NC(=O)c1ccc2c(c1)nc(-c1ccccn1)n2C1CCCCC1` displayed an IC50 of 1000 to 20000 nM.

`O=C(NS(=O)(=O)c1ccccc1)c1ccc2c(c1)nc(-c1ccoc1)n2C1CCCCC1` returned an IC50 below 1000 nM.

`CS(=O)(=O)NC(=O)c1ccc2c(c1)nc(-c1ccoc1)n2C1CCCC1` came in with an IC50 of 1000 to 20000 nM.
